These results are taken from PubChem BioAssay AID540276 (National Center for Advancing Translational Sciences (NCATS), 2011).

The list shows a part of the results, in another mix than the full data. Records with an inconclusive call do not appear. The source made the active and inactive calls. The call rests on the fitted dose curve; tested in HEK293 cells.
On the % scale 0 is the no-effect control and ±100 the full control effect; potency means the concentration at half of the fitted maximal effect.

The assay is described as follows: qHTS for inhibitors of binding or entry into cells for Marburg Virus. Particulars: Marburg virus pseudotyped entry inhibition, cell reporter; series mostly up to 46.1 µM; activity change, negative = inhibition: at the top concentration. For orientation: In qHTS, concentration-response curves come from the screen itself.
For `N/C(=N\O)c1c(N)no[n+]1[O-]`, the “activity change, negative = inhibition” value was inactive: 14.6% [at 37.8 µM].
Regarding `O=C(OC1CN2CCC1CC2)C1c2ccccc2C=Cc2ccccc21` (configuration not stated), the Potency is active: 18.4 µM.
As for `O=C1C(O)=C([N+](=O)[O-])C(=O)C(O)=C1[N+](=O)[O-]`, the “activity change, negative = inhibition” value was inactive: -20.3%.
Still for that read-out and setting: the same measure for `O=P1(N(CCCl)CCCl)SCCCS1`: inactive: 7.34%.
Regarding `O=C(NCC1(N2CCCCC2)CCCCC1)c1cccc(C(F)(F)F)c1`, the Potency is active: 10 µM.
Regarding `O=[N+]([O-])c1cc([N+](=O)[O-])c(OC2CCCCC2O)c([N+](=O)[O-])c1` (configuration not stated), the “activity change, negative = inhibition” value is inactive: -7.72% [at 37.8 µM].
With `O=C(OC1CN2CCC1CC2)c1ccc([N+](=O)[O-])cc1` (configuration not stated), the “activity change, negative = inhibition” value was inactive: -1.18%.
